From patent US7811577B2 (priority 2004, dated 2010)

Tested on: HIV-1 HXB2

With `CC[C@H](C)[C@H](NC(C)=O)C(=O)N[C@@H](CCCCN)C(=O)N[C@@H](CCCCN)C(=O)N[C@@H](CCC(=O)O)C(=O)N[C@H](C(=O)N[C@@H](CCC(=O)O)C(=O)N[C@@H](C)C(=O)N[C@H](C(=O)N[C@@H](CCCCN)C(=O)N[C@@H](CCCCN)C(=O)N[C@@H](CCC(=O)O)C(=O)N[C@@H](CCC(N)=O)C(=O)N[C@@H](CCC(=O)O)C(=O)N[C@@H](C)C(=O)N[C@H](C(=O)N[C@@H](CCCCN)C(=O)N[C@@H](CCCCN)C(=O)N[C@@H](CCCCN)C(=O)N[C@H](C(=O)N[C@@H](CCC(=O)O)C(=O)N[C@@H](C)C(=O)N[C@H](C(=O)N[C@@H](CCC(=O)O)C(=O)N[C@@H](CCCCN)C(=O)N[C@@H](CC(C)C)C(=O)N[C@@H](CC(C)C)C(=O)N[C@@H](CCC(N)=O)C(=O)N[C@@H](CC(C)C)C(=O)N[C@H](C(=O)N[C@H](C(=O)N[C@@H](Cc1c[nH]c2ccccc12)C(=O)NCC(=O)N[C@H](C(=O)N[C@@H](CCCCN)C(=O)N[C@@H](C)C(=O)N[C@@H](CC(C)C)C(=O)N[C@@H](C)C(=O)N[C@@H](C)C(=O)N[C@@H](C)C(=O)N[C@H](C(=O)N[C@@H](C)C(N)=O)[C@@H](C)CC)[C@@H](C)CC)C(C)C)[C@@H](C)O)[C@@H](C)CC)[C@@H](C)CC)[C@@H](C)CC)[C@@H](C)CC)[C@@H](C)CC` [IZN17Ala4] the “anti-viral activity against HIV-1 HXB2, in words” value was “retain anti-viral activity” and the IC50 (read-out: IC50 against HIV-1 HXB2) was 25 nM.
